Reference: patent US5811454A (priority 1993, dated 1998)

Key:
[1] = Chemical half-lives measured in a pH stat by titrating against NaOH; conditions: for Active Drug t1/2 (chemical half-life): pH stat, titration against NaOH; for Reactivity compared to non-fluorinated analogues (from chemical half-lives): in words
[2] = system: colorectal cell line LS174T; conditions: read-out: Active Drug IC50, active drug alone, 1 h

O=C(O)c1ccc(N(CCCl)CCCl)cc1
Active Drug t1/2 (chemical half-life) [1]: 5.4 h

O=C(O)c1ccc(N(CCCl)CCCl)cc1F
IC50 [2]: > 800 µM
Active Drug t1/2 (chemical half-life) [1]: 20.7 h
Reactivity compared to non-fluorinated analogues (from chemical half-lives) [1]: deactivated

O=C(O)c1ccc(N(CCCl)CCCl)c(F)c1
IC50 [2]: 270 µM
Active Drug t1/2 (chemical half-life) [1]: 1.2 h
Reactivity compared to non-fluorinated analogues (from chemical half-lives) [1]: activated
